Measured values from several laboratories, pooled; numbers as filed in NIAID ChemDB.

Shared fields: whole-cell or culture tests; agent: HIV-1; measure: EC50

An empty or dashed field is not shown. Rows are shuffled and stem from different studies. ECn: concentration that inhibits the pathogen or its effect by n%.

smiles	strain or isolate	changes	cell line	method	conditions	value
Cc1cn([C@H]2C=C[C@@H](CO)O2)c(=O)[nH]c1=O	NL4-3	RT-K103N	MAGI (CCR5) + MAGI	β-galactosidase	-	0.21 µM
C#C[C@]1(CO)O[C@@H](n2cnc3c(N)nc(F)nc32)C[C@@H]1O	Clinical isolate	T165A	MT4-GFP	fluorescence	-	0.0009 µM
CCn1nc(Cc2ccc(OC(C)(C)C)cc2)cc1C1CCN(C[C@H]2CN([C@@H](C(=O)O)C(C)(C)C)C[C@@H]2c2cccc(F)c2)CC1	BaL	-	HeLa	β-galactosidase	-	<0.011 µM
Cc1ccnc2c1NC(=O)c1cccnc1N2C1CC1	NL4-3	RT-K103N M184V	MAGI (CCR5) + MAGI	β-galactosidase	-	2.3 µM
Cc1cc(S(N)(=O)=O)ccc1NC(=O)COc1ccc(Cl)cc1C(=O)c1cc(Cl)cc(C#N)c1	NNRTI-resistant (RT K101E)	RT-K101E	MAGI	β-galactosidase	-	0.00096 µM
CC[C@H](C)[C@H](C(=O)O)N1C[C@H](CN2CCC(c3cc(Cc4ccc(C(F)(F)F)cc4)nn3CC)CC2)[C@@H](c2cccc(F)c2)C1	BaL	-	HeLa	β-galactosidase	50% human serum	<0.033 µM
S=C(NCCc1cccs1)Nc1ccc(Br)cn1	M893-1 Clinical isolate NRTI-resistant	RT-K70R	HT4 + HeLa	plaque count	-	0.18 µM
Nc1nc(=O)n([C@@H]2CS[C@H](CO)O2)cc1F	RTMN(181 184) (RT M41L Y181C M184V T215Y)	RT-M41L Y181C M184V T215Y	HT4 + HT4 LacZ-1	plaque count	-	>500 µM
CCc1c(C(=O)c2cc(C)cc(C)c2)n(CC2CC=CC2)c(=O)[nH]c1=O	CLADE E	-	PBMC	cytopathic effect / XTT	clinical isolate	0.0008 µM
CCn1nc(Cc2ccc3ccccc3c2)cc1C1CCN(C[C@H]2CN([C@@H](C(=O)O)C(C)(C)C)C[C@@H]2c2cccc(F)c2)CC1	BaL	-	HeLa	β-galactosidase	50% human serum	<0.1 µM
Cn1c2ccccc2c2c1cc(C#N)c(=O)n2-c1ccc([N+](=O)[O-])cc1	NL4-3 WT	-	HeLa	luciferase	-	0.0271 µM
CC(=O)N1CCC(C(=O)N(CCCN2CCC(Cc3ccc(C(N)=O)cc3)CC2)c2ccc(C)c(Cl)c2)CC1	R5 subtype A_3 recombinant	-	U87 (CD4+ CCR5+) + U87	luciferase	-	0.0057 µM
Cc1ccnc2c1NC(=O)c1cccnc1N2C1CC1	HXB2(184) (RT-M184V)	RT-M184V	HT4 + HT4 LacZ-1	plaque count	-	0.1 µM
CCn1nc(Cc2ccc(F)cc2)cc1C1CCN(C[C@H]2CN([C@@H](C(=O)O)C3CCCCC3)C[C@@H]2c2cccc(F)c2)CC1	BaL	-	HeLa	β-galactosidase	-	<0.033 µM
Cc1ccnc2c1NC(=O)c1cccnc1N2C1CC1	HXB2	RT-M41L Y181C T215Y	HT4 + HT4 LacZ-1	plaque count	-	10 µM
C[C@H](Cn1cnc2c(N)ncnc21)OCP(=O)(O)O	Recombinant	RT-M41L A62V S68N G112S M184V	HeLa	luciferase	-	0.278 µM
CCn1nc(Cc2ccc3c(c2)OCO3)cc1C1CCN(C[C@H]2CN([C@@H](C(=O)O)C(C)(C)C)C[C@@H]2c2cccc(F)c2)CC1	BaL	-	HeLa	β-galactosidase	50% human serum	<0.033 µM
Nc1nc(NC2CC2)c2ncn([C@H]3C=C[C@@H](CO)C3)c2n1	NL4-3 WT	-	HeLa	luciferase	-	1.65 µM
CCn1nc(Cc2ccc(Cl)cc2)cc1C1CCN(C[C@H]2CN([C@@H](C(=O)O)C3CCCCC3)C[C@@H]2c2cccc(F)c2)CC1	BaL	-	HeLa	β-galactosidase	50% human serum	<0.1 µM

The last 2 rows once more:

smiles,strain or isolate,changes,cell line,method,conditions,value
Nc1nc(NC2CC2)c2ncn([C@H]3C=C[C@@H](CO)C3)c2n1,NL4-3 WT,-,HeLa,luciferase,-,1.65 µM
CCn1nc(Cc2ccc(Cl)cc2)cc1C1CCN(C[C@H]2CN([C@@H](C(=O)O)C3CCCCC3)C[C@@H]2c2cccc(F)c2)CC1,BaL,-,HeLa,β-galactosidase,50% human serum,<0.1 µM